Assay results as given in patent publication US20260055154A1 (CHENGDU AODA BIOTECHNOLOGY CO., LTD, priority 2022, published 2026).

Key:
[1] = general procedure: Fmoc solid-phase peptide synthesis; Rink Amide MBHA resin (substitution about 0.4 mmol/g); conditions: whole synthesis, acetate; for final HPLC purity: analytical liquid phase (HPLC); for final HPLC purity / isolated yield: scale of the general procedure 1 mmol; for isolated yield: total yield
[2] = peptide synthesis; conditions: whole synthesis, acetate

| Substance | isolated mass [1] | final HPLC purity [1] | isolated yield [1] | isolated mass ([1]; scale 1 mmol) | final HPLC purity [2] | isolated yield [2] |
| --- | --- | --- | --- | --- | --- | --- |
| His-Aib-Gln-Gly-Thr-Phe-Thr-Ser-Asp-Tyr-Ser-Lys-Tyr-Leu-Asp-Glu-Lys-Lys-Ala-Lys(Gly-Gly-Glu-Gly-Glu-Gly-γGlu-eicosanedioic acid)-Glu-Phe-Val-Glu-Trp-Leu-Leu-Glu-Gly-Gly-Gly-Pro-Ser-Ser-Gly-Ala-Pro-Pro-Pro-Ser-NH2 | 0.30 g | 96.5% | 5.8% | – | – | – |
| His-Aib-Gln-Gly-Thr-Phe-Thr-Ser-Asp-Tyr-Ser-Lys-Tyr-Leu-Asp-Glu-Lys-Lys-Ala-Lys(Gly-Gly-Ser-Gly-Ser-Gly-γGlu-eicosanedioic acid-γGlu-eicosanedioic acid)-Glu-Phe-Val-Glu-Trp-Leu-Leu-Glu-Gly-Gly-Pro-Ser-Ser-Gly-Ala-Pro-Pro-Pro-Ser-NH2 | 0.33 g | 93.4% | 6.4% | – | – | – |
| His-Aib-Gln-Gly-Thr-Phe-Thr-Ser-Asp-Tyr-Ser-Lys-Tyr-Leu-Asp-Glu-Lys-Lys-Ala-Lys(AEEA-AEEA-γGlu-eicosanedioic acid)-Glu-Phe-Val-Glu-Trp-Leu-Leu-Glu-Gly-Gly-Pro-Ser-Ser-Gly-Ala-Pro-Pro-Pro-Ser-NH2 | – | 97.9% | 7.0% | 0.35 g | – | – |
| His-Aib-Gln-Gly-Thr-Phe-Thr-Ser-Asp-Tyr-Ser-Lys-Tyr-Leu-Asp-Glu-Lys-Lys-Ala-Lys(PEG5CH2CO-γGlu-eicosanedioic acid)-Glu-Phe-Val-Glu-Trp-Leu-Leu-Glu-Gly-Gly-Pro-Ser-Ser-Gly-Ala-Pro-Pro-Pro-Ser-NH2 | – | – | – | – | 97.0% | 8.6% |
